{"source": "PubChem BioAssay AID493162", "about": "(ICCB-Longwood Screening Facility, Harvard Medical School, 2011)", "note": "The entries are a selection whose mix differs from that of the whole data set. Calls of active or inactive are those of the source. Cut-off read from the data, not from the text of the source: active = normalized absorbance mostly below about 85% (no sharp cut-off); inactive = mostly above about 86%.", "data": [{"tested_on": "Vaccinia virus DNA polymerase (E9) processive complex", "test": "vaccinia E9 polymerase processive synthesis inhibitors, primary screen, biochemical, absorbance (AID 493162)", "conditions": "in vitro processive DNA synthesis, absorbance read-out; hits give low values; concentration not given here", "values": [{"smiles": "O=P1(Nc2ccccn2)COc2ccccc2OC1", "normalized absorbance": "inactive: 94.5%"}, {"smiles": "Cc1ccc(C(=O)OC2CN3CCC2CC3)cc1", "note": "(stereo not drawn)", "normalized absorbance": "inactive: 108%"}, {"smiles": "CC1(C)COP(=S)(N(C2=NCCC2)c2ccccc2)OC1", "normalized absorbance": "inactive: 95.6%"}, {"smiles": "Cc1cc(C)cc(OP(C)(=O)Nc2ccc(OC(C)C)cc2)c1", "note": "(stereo not drawn)", "normalized absorbance": "inactive: 100%"}, {"smiles": "CC1(C)Nc2ccccc2OP1(=O)c1ccccc1", "note": "(stereo not drawn)", "normalized absorbance": "inactive: 83.7%"}, {"smiles": "COc1cc(-n2cnnn2)ccc1-n1cnnn1", "normalized absorbance": "inactive: 97.8%"}, {"smiles": "Cc1cccc(OCC(=O)OC2CN3CCC2CC3)c1", "note": "(stereo not drawn)", "normalized absorbance": "inactive: 99.8%"}, {"smiles": "O=C(OC1CN2CCC1CC2)c1ccc(Cl)cc1", "note": "(stereo not drawn)", "normalized absorbance": "inactive: 101%"}, {"smiles": "O=C(OC1CN2CCC1CC2)C12CC3CC(CC(C3)C1)C2", "note": "(stereo not drawn)", "normalized absorbance": "inactive: 99.1%"}, {"smiles": "CN(C)P1(=O)Nc2ccccc2S1", "note": "(stereo not drawn)", "normalized absorbance": "inactive: 101%"}, {"smiles": "CC1=Nc2ccc(C(F)(F)F)cc2C1(C)C", "normalized absorbance": "inactive: 97%"}, {"smiles": "O=C(O)CCC(=O)N=S(c1ccccc1)c1ccccc1.O=[N+]([O-])c1cc([N+](=O)[O-])c(O)c([N+](=O)[O-])c1", "normalized absorbance": "inactive: 92%"}, {"smiles": "CCn1cccc/c1=N\\P1(=S)OCCO1", "normalized absorbance": "inactive: 99.8%"}, {"smiles": "CCc1nc2c(n1)c1c(non1O)c1c2no[n+]1[O-]", "normalized absorbance": "inactive: 100%"}, {"smiles": "CP(=O)(Nc1ccc(Cl)cc1)Oc1ccc(F)cc1", "note": "(stereo not drawn)", "normalized absorbance": "inactive: 100%"}, {"smiles": "CN(C(=O)Cc1ccc(Cl)c(Cl)c1)[C@H]1CCCC[C@@H]1N1CCCC1", "normalized absorbance": "inactive: 100%"}, {"smiles": "CCOP(=Nc1nc2ccccc2n2nnnc12)(OCC)OCC", "normalized absorbance": "inactive: 100%"}, {"smiles": "CP(=O)(Nc1ccccn1)Oc1ccccc1", "note": "(stereo not drawn)", "normalized absorbance": "inactive: 100%"}, {"smiles": "O=P1(Nc2nc3ccc(Cl)cc3s2)COc2ccccc2O1", "note": "(stereo not drawn)", "normalized absorbance": "inactive: 85.4%"}, {"smiles": "O=C(OC1/C(=C/c2ccccc2F)N2CCC1CC2)c1ccccc1", "note": "(stereo not drawn)", "normalized absorbance": "inactive: 107%"}, {"smiles": "COc1cc2c(cc1NP(C)(=O)Oc1ccccc1)oc1ccccc12", "note": "(stereo not drawn)", "normalized absorbance": "inactive: 100%"}, {"smiles": "CC(=O)OC1(C#N)CN2CCC1CC2", "note": "(stereo not drawn)", "normalized absorbance": "inactive: 97.9%"}, {"smiles": "CC(=O)OC1CN2CCC1C(c1ccccc1)C2", "note": "(stereo not drawn)", "normalized absorbance": "inactive: 106%"}]}]}
